Results published in article PMC7762174 (Viruses, 2020).

System: SARS-CoV-2
Assay type: cell-based
Conditions: for Anti-SARS-CoV-2 drug efficacy on Vero cells: SI: CC50/EC50, Vero cells, RT-qPCR

With `COC(=O)c1c(-c2c(F)cccc2Cl)noc1-c1cnn(-c2cccc(Cl)c2)c1C(F)(F)F` [IMU-CO3] the “Anti-SARS-CoV-2 drug efficacy on Vero cells: SI” value was > 6.5.
With `CCC(CC)COC(=O)[C@H](C)N[P@](=O)(OC[C@H]1O[C@@](C#N)(c2ccc3c(N)ncnn23)[C@H](O)[C@@H]1O)Oc1ccccc1` [RDV, remdesivir, reference compound] the “SI (RT-qPCR/NRA)” value (CC50/EC50, Vero 76) was > 59 and the “Anti-SARS-CoV-2 drug efficacy on Vero cells: SI” value was > 59.
